Results of unrelated studies side by side (data: NIAID ChemDB).

Shared fields: tests in culture; organism: Candida albicans; measure: MIC90

Blank or dashed fields: not listed here. MIC50, MIC90 and the like: level of inhibition, or share of isolates inhibited. Lines come from different laboratories, so protocols vary.

compound | strain | setting | read by | value
Clc1ccccc1COc1ccc(C(c2cccc3ccccc23)n2ccnc2)cc1.O=[N+]([O-])O | 16 strains |  |  | ≥256 µg/mL
C[C@@H](c1ncncc1F)[C@](O)(Cn1cncn1)c1ccc(F)cc1F |  |  | broth dilution | <0.004 µg/mL
C[C@@H](c1ncncc1F)[C@](O)(Cn1cncn1)c1ccc(F)cc1F |  |  | broth dilution | 0.5 µg/mL
c1ccc(C(c2ccccc2)n2cncn2)cc1 |  |  | agar | 32 µg/mL
C=CCSS(=O)CC=C | Clinical Isolate 3072 |  | broth dilution | 0.78 µg/mL
Fc1ccccc1COc1ccc(C(c2ccc3ccccc3c2)n2ccnc2)cc1 | 16 strains |  |  | 128 µg/mL
CCOC(=O)c1c(-c2ccccc2)c2ccc(Cl)cc2oc1=O | ATCC 90028 |  | broth dilution / absorbance | >100 µg/mL
C=CCc1ccc(OC)c(OC)c1 | 3001 |  | turbidity | 350 µg/mL
Clc1ccc(C(Cn2ccnc2)OCc2csc3c(Cl)cccc23)c(Cl)c1 | 63 isolates | 24 h | visual reading | 4 µg/mL
O=c1cc(-c2ccccc2)c2cc(Cl)ccc2o1 | ATCC 90028 |  | broth dilution / absorbance | >100 µg/mL
Clc1ccc(COc2ccc(C(c3nccc4ccccc34)n3ccnc3)cc2)c(Cl)c1 | 16 strains |  |  | ≥256 µg/mL
COc1ccc(C(c2ccc(OC)cc2)n2ccnc2)cc1 |  |  | agar | >256 µg/mL
Clc1cccc(Cl)c1COc1ccc(C(c2ccc3ccccc3c2)n2ccnc2)cc1.O=[N+]([O-])O | 16 strains |  |  | ≥256 µg/mL
CCC(C)CC(C)CCCCCCCCC(=O)N[C@H]1C[C@@H](O)[C@H](NCCN)NC(=O)[C@@H]2[C@@H](O)CCN2C(=O)[C@H]([C@H](O)CCN)NC(=O)[C@H]([C@H](O)[C@@H](O)c2ccc(O)cc2)NC(=O)[C@@H]2C[C@@H](O)CN2C(=O)[C@H]([C@@H](C)O)NC1=O |  |  | broth dilution | 4 µg/mL
CSc1ccc(C(c2nccc3ccccc23)n2ccnc2)cc1.O=[N+]([O-])O | 44 strains |  |  | 256 µg/mL
C/C(C=NCCN=C/C(C)=C\c1ccccc1)=C/c1ccccc1 | ATCC 44829 |  | agar diffusion | 110 µM
Nc1ncccc1-c1cc(Cc2ccc(COc3ccccn3)cc2)no1 |  |  | broth dilution | <0.008 µg/mL
CCC(C)CC(C)CCCCCCCCC(=O)N[C@H]1C[C@@H](O)[C@H](NCCN)NC(=O)[C@@H]2[C@@H](O)CCN2C(=O)[C@H]([C@H](O)CCN)NC(=O)[C@H]([C@H](O)[C@@H](O)c2ccc(O)cc2)NC(=O)[C@@H]2C[C@@H](O)CN2C(=O)[C@H]([C@@H](C)O)NC1=O |  |  | broth dilution | 2 µg/mL
Clc1ccc(C(c2ccccc2)N2CCN(CCn3cncn3)CC2)cc1 |  |  | agar | 32 µg/mL
Cc1ccc(C(c2nccc3ccccc23)n2ccnc2)cc1 | 44 strains |  |  | 256 µg/mL
O=C(c1ccccc1)C(c1ccccc1)n1cnc2ccccc21 |  |  | agar | 64 µg/mL
Fc1ccc(COc2ccc(C(c3ccc(-c4ccccc4)cc3)n3ccnc3)cc2)cc1.O=[N+]([O-])O | 17 strains |  |  | ≥256 µg/mL

Repeating the first 2 entries:

Clc1ccccc1COc1ccc(C(c2cccc3ccccc23)n2ccnc2)cc1.O=[N+]([O-])O ; strain: 16 strains ; value: ≥256 µg/mL
C[C@@H](c1ncncc1F)[C@](O)(Cn1cncn1)c1ccc(F)cc1F ; read by: broth dilution ; value: <0.004 µg/mL